Publication PMC11697409 (Biotechnology Reports, 2024)

Assay: general procedure: Fmoc solid-phase peptide synthesis; Fmoc-Rink-MBHA resin (0.71 mmol/g); DIC/Oxima
Details: whole synthesis, 220 nm

| Substance | final HPLC purity [%] |
| --- | --- |
| TTLRPKLKSK-NH2 | >99 |
| LYVAKNKYGLGKL-NH2 | >99 |
